This note sets out measurements from article PMC3662766.

Amino acid sequences for entries named in this document (tags omitted).
UniProt Q9HC16, whole entry E259Q: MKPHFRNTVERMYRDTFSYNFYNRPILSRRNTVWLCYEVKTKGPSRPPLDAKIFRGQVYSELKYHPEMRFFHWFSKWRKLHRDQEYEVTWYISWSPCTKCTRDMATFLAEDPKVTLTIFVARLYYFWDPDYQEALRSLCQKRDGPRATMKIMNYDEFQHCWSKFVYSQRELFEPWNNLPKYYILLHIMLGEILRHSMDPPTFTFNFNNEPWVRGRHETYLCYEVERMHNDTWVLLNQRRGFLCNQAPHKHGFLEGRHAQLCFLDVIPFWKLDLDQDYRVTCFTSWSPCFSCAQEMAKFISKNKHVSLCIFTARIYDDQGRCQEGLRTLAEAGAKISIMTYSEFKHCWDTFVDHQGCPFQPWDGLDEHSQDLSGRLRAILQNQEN

The target in one data set is APOBEC3G (A3G) (UniProt Q9HC16). The data set is described as follows: fluorescence anisotropy. To be noted: RT buffer: 50 mM Tris pH 7.5 (printed '50 M'), 40 mM KCl, 10 mM MgCl2, 1 mM DTT, 50 nM p/t, 21 C, protein 0-5 uM.
For the next data set, the target named is APOBEC3G E259Q E259Q (UniProt Q9HC16). The data set is described as follows: fluorescence anisotropy. The note with it: RT buffer: 50 mM Tris pH 7.5 (printed '50 M'), 40 mM KCl, 10 mM MgCl2, 1 mM DTT, 50 nM p/t, 21 C, protein 0-5 uM. (In general: In fluorescence polarisation assays a small probe gives low polarisation when free and higher when bound to something large.)

Data set [1] has as its target T1, HIV-1 reverse transcriptase p66/p51 (HIV-1) (UniProt P04585+P04585). The data set can be described thus: fluorescence anisotropy. The note with it: RT buffer: 50 mM Tris pH 7.5 (printed '50 M'), 40 mM KCl, 10 mM MgCl2, 1 mM DTT, 50 nM p/t, 21 C, protein 0-5 uM.
In data set [2] the target is T1, HIV-1 reverse transcriptase p66/p51 (HIV-1). The data set can be described thus: fluorescence anisotropy, competition. To be noted: primer chimera: nt 1-18 RNA, nt 19-24 DNA; RT buffer: 50 mM Tris pH 7.5 (printed '50 M'), 40 mM KCl, 10 mM MgCl2, 1 mM DTT; 50 nM p/t; 21 C; protein 0-5 uM.
[3] abbreviates: primer chimera: nt 1-18 RNA, nt 19-24 DNA.

pKd: −log10 of the molar value.

With “UGUUAGGACUCUGGUAACUAGAGAUCCCUCAGAUCACUCUAGACUGAGUAAAAAUCUCUAGCAGUGGCGCCCGAACAGGGACUUGAAAGCGAAAGUUAAUAGGGAC / GUCCCUGUUCGGGCGCCA [PBS p/t (18 nt RNA primer on 106 nt PBS RNA)]”, the pKd (commonly the negative decadic logarithm of the Kd, by convention in mol/L) with APOBEC3G (A3G) was 6.11; with APOBEC3G E259Q E259Q it was 5.96; in data set [1], 5.60.
As for “UGUUAGGACUCUGGUAACUAGAGAUCCCUCAGAUCACUCUAGACUGAGUAAAAAUCUCUAGCAGUGGCGCCCGAACAGGGACUUGAAAGCGAAAGUUAAUAGGGAC / GUCCCUGUUCGGGCGCCACTGCTA [PBS+6 p/t (24 nt RNA/DNA primer on 106 nt PBS RNA)]”, the pKd in the data set with APOBEC3G (A3G) (setting [3]) is 6.45; with APOBEC3G E259Q E259Q (setting [3]) it was 6.16; in data set [1] (setting [3]), 6.24; in data set [2], 6.01.
